Measured values from several laboratories, pooled; numbers as filed in NIAID ChemDB.

Shared fields: growth or infection tests; organism: Staphylococcus aureus

a–b is a range or a potency band.

SMILES | endpoint | strain or isolate | method | result
CC(C)c1c(O)c([N+](=O)[O-])cc2c1CC[C@H]1C(C)(C)CCC[C@]21C | MIC |  |  | >32 µg/mL
O=C(O)c1cn(C2CC2)c2c(Cl)c(N3CCNCC3)c(F)cc2c1=O | MIC | 133 |  | 0.06 µg/mL
CN1OCC(N)C1=O | MIC |  |  | >2500 µM
C[C@H]1C[C@H](N)CN1c1cc2c(cc1F)c(=O)c(C(=O)O)cn2-c1ccc(F)cc1F | MIC | 1775 (ciprofloxacin-resistant) |  | 8 µg/mL
CC1CN(c2c(Cl)cc3c(=O)c(C(=O)O)cn(C4CC4)c3c2F)CC(C)N1 | MIC | 1756 |  | 0.5 µg/mL
CCC[C@H](N)C1CCN(c2c(F)cn3c(=O)c(C(=O)O)cc(C4CC4)c3c2C)C1 | MIC | 1775 (ciprofloxacin-resistant) |  | 0.05 µg/mL
C[C@H]1CN(c2c(F)cc3c(=O)c(C(=O)O)cn(C4CC4)c3c2OC(F)F)CCN1 | MIC90 | 20 strains (oxacillin-susceptible) |  | 0.06 µg/mL
CSCC[C@H](N)C1CCN(c2c(F)cn3c(=O)c(C(=O)O)cc(C4CC4)c3c2C)C1 | MIC | 1775 (ciprofloxacin-resistant) |  | 0.1 µg/mL
CC(=O)CN1CCN(c2c(Cl)cc3c(=O)c(C(=O)O)cn(C4CC4)c3c2F)CC1 | MIC | 1756 |  | 0.25 µg/mL
CC(=O)NC[C@H]1CN(c2ccc(N3CCN(C(=O)CO)CC3)c(F)c2)C(=O)O1 | MIC50 | Oxacillin-susceptible |  | 1–4 µg/mL
CC(C)c1c(O)c(C(C)(C)O)cc2c1CC[C@H]1C(C)(C)CCC[C@]21C | MIC |  |  | 32 µg/mL
CN(C)[C@@H]1C(=O)C(C(N)=O)=C(O)[C@@]2(O)C(=O)C3=C(O)c4c(O)c(NC(=O)CN5CCOCC5)cc(F)c4C[C@H]3C[C@@H]12 | MIC | 158-tet | agar diffusion | 8 µg/mL
Cc1c(N2CC3=CCCN[C@H]3C2)c(F)cn2c(=O)c(C(=O)O)cc(C3CC3)c12 | MIC | 285 |  | 0.013 µg/mL
CC(C)c1cc2c(c(O)c1O)[C@@]1(C(=O)O)CCCC(C)(C)C1CC2 | MIC |  |  | 32 µg/mL
CO/N=C1\CN(c2nc3c(cc2F)c(=O)c(C(=O)O)cn3C2CC2)CC1CN | MIC50 | 24 strains (ofloxacin-susceptible) |  | 0.06 µg/mL
CC[C@H]1OC(=O)[C@H](C)[C@@H](O[C@H]2C[C@@](C)(OC)[C@@H](O)[C@H](C)O2)[C@H](C)[C@@H](O[C@@H]2O[C@H](C)C[C@H](N(C)C)[C@H]2O)[C@](C)(OC)C[C@@H](C)C(=O)[C@H](C)[C@@H](O)[C@]1(C)O | MIC50 | 20 strains (methicillin-resistant) |  | >32 µg/mL
COc1c(N)cc2c(c1C(C)C)CC[C@H]1C(C)(C)CCC[C@]21C | MIC |  |  | >32 µg/mL
CC(=O)NC[C@H]1CN(c2ccc(N3CCOCC3)c(F)c2)C(=O)O1 | MIC90 | 25 strains (methicillin-susceptible) |  | 2 µg/mL
NC1CON(CC(=O)O)C1=O | MIC |  |  | >2500 µM
CC(=O)c1cc2c(c(C(C)C)c1O)CC[C@H]1C(C)(C)CCC[C@]21C | MIC |  |  | >32 µg/mL
CO[C@H]1/C=C/O[C@@]2(C)Oc3c(C)c(O)c4c(=O)c(c5oc6cc(N7CCN(CC(C)C)CC7)cc(=O)c6nc5c4c3=C2O)NC(=O)/C(C)=C\C=C\[C@H](C)[C@H](O)[C@@H](C)[C@@H](O)[C@@H](C)[C@H](OC(C)=O)[C@@H]1C | MIC | ATCC 25923 |  | 0.0313 µg/mL
CN1CCN(c2c(F)cc3c(=O)c(C(=O)O)cn(C4CC4)c3c2Cl)CC1 | MIC | 133 |  | 0.06 µg/mL
CC(=O)Nc1cc2c(c(C(C)C)c1OC(C)=O)CC[C@H]1C(C)(C)CCC[C@]21C | MIC |  |  | >32 µg/mL
CCCCCCCCCC(=O)N[C@H]1[C@H](Oc2c3cc4cc2Oc2ccc(cc2Cl)[C@@H](O[C@@H]2O[C@H](CO)[C@@H](O)[C@H](O)[C@H]2NC(C)=O)[C@@H]2NC(=O)[C@H](NC(=O)[C@@H]4NC(=O)[C@H]4NC(=O)[C@@H](Cc5ccc(c(Cl)c5)O3)NC(=O)[C@H](N)c3ccc(O)c(c3)Oc3cc(O)cc4c3)c3ccc(O)c(c3)-c3c(O[C@H]4O[C@H](CO)[C@@H](O)[C@H](O)[C@@H]4O)cc(O)cc3[C@H](C(=O)O)NC2=O)O[C@H](CO)[C@@H](O)[C@@H]1O | MIC90 | 24 strains (ofloxacin-susceptible) |  | 2 µg/mL
Cc1c(N2Cc3cccnc3C2)c(F)cn2c(=O)c(C(=O)O)cc(C3CC3)c12 | MIC | NCTC10649 |  | 0.005 µg/mL
C[C@@H]1CN(c2c(F)c(N)c3c(=O)c(C(=O)O)cn(C4CC4)c3c2F)C[C@H](C)N1 | MIC90 | 24 strains (ofloxacin-susceptible) |  | 0.12 µg/mL
CCC1CN(c2c(Cl)cc3c(=O)c(C(=O)O)cn(C4CC4)c3c2F)CCN1 | MIC | 1756 |  | 0.25 µg/mL
NC1CON(CCOCc2ccccc2)C1=O | MIC |  |  | >2500 µM
CC1CN(c2c(Cl)cc3c(=O)c(C(=O)O)cn(C4CC4)c3c2F)CC(C)O1 | MIC | 422 |  | ≤0.015 µg/mL
C[C@H]1C[C@H](N)CN1c1nc2c(cc1F)c(=O)c(C(=O)O)cn2-c1ccc(F)cc1F | MIC | NCTC10649 |  | 0.03 µg/mL
CN(O)C(=O)CN1OCC(N)C1=O | MIC |  |  | >2500 µM
O=C(O)c1cn(C2CC2)c2c(F)c(N3CCNC(C4CCCCC4)C3)c(Cl)cc2c1=O | MIC | 1756 |  | 0.06 µg/mL

The last 2 rows once more:

SMILES | endpoint | strain or isolate | method | result
CN(O)C(=O)CN1OCC(N)C1=O | MIC |  |  | >2500 µM
O=C(O)c1cn(C2CC2)c2c(F)c(N3CCNC(C4CCCCC4)C3)c(Cl)cc2c1=O | MIC | 1756 |  | 0.06 µg/mL

Conditions beyond the fields shown may differ between rows. MIC50, MIC90 and the like: level of inhibition, or share of isolates inhibited. Blank or dashed fields: not listed here.